Among the data in publication PMC12170907 are stoichiometry N values, retold here.

The test has as its target GFP-M-HBsAg-3CA (C76A, C90A, C221A) (Hepatitis B virus (serotype ayw, genotype D3)). Kind of test: cryo-EM structure.

In turn, “GFP-M-HBsAg-3CA (C76A, C90A, C221A) (natural protein)” yielded a stoichiometry N of 2.
